Measurements: paper PMC7385433 (International Journal of Antimicrobial Agents, 2020)

Legend:
[1] = test system: Burkholderia pseudomallei K96243; parameters: species or system BALB/c mice; settings: mouse, in vivo
[2] = cited from earlier work
[3] = mouse, in vivo

Substance: coumermycin
- toxicity [1]: no toxicity was observed
- membrane permeability compared with novobiocin [2]: improved membrane permeability
- Cmax [3]: 103 µM
- Tmax [3]: 2 h
